Here are results for 3 molecules from patent US20060228754A1 (priority 1998, published 2006).

SMILES strings stand for the structures. Like-named read-outs stand apart in the source and are kept apart here.

The target of the experiment is monoclonal antibody that recognizes the 3,6-dideoxy-D-galactose (abequose) epitope in Salmonella paratyphi B O-antigens.

`COC1OC(CO)C(O)C(OC2OC(C)C(O)CC2O)C1O` (stereo not shown) [compound 4] yielded a Kd of 200 µM. Further, the Kd (read-out: Kd of indicator compound) was 200 µM. The Kd (read-out: Kd ± s, FC/MS Ind.) is 185 ± 17 µM. Moreover, the Kd (read-out: Kd ± s, FC/MS Mix) came to 178 ± 23 µM.
Regarding `COC1OC(CO)C(O)C(OC2OC(C)C(O)CC2O)C1OC1OC(CO)C(O)C(O)C1O` (stereo not shown) [compound 5], the Kd was found to be 11.2 µM (read-out: Kd from x-intercept of ([A]0(V−V0))^−1 versus [A]0^−1 plot, infused at various concentrations, FIG. 6); 12.6 ± 1.3 µM (read-out: Kd ± s, FC/MS Ind.); 10.2 ± 1.1 µM (read-out: Kd ± s, FC/MS Mix).
`COC1OC(CO)C(OC2OC(CO)C(O)C(OC3OC(CO)C(O)C(OC4OC(C)C(O)CC4O)C3OC3OC(CO)C(OC4OC(CO)C(OC5OC(CO)C(O)C(O)C5O)C(O)C4O)C(O)C3O)C2O)C(O)C1O` (stereo not shown) [compound 6, αGlc(1-4)βGlc(1-4)αGal(1-2)-[αAbe(1-3)]αMan(1-3)αGlc(1-4)βGlc-OCH3] came in with a Kd of 1.5 µM. Also, where the note is “read-out: Kd ± s, FC/MS Ind.”, the Kd was 1.79 ± 0.2 µM. Besides, the Kd (read-out: Kd ± s, FC/MS Mix) was determined as 1.71 ± 0.16 µM.
